Measured values as given in patent US10556856B2, “Antibacterial agents” (Rutgers, The State University of New Jersey, priority 2014, dated 2020).
“Also recorded” adds a separate entry of the source.

What was measured:
[1] = Isothermal titration calorimetry; format: binding; conditions: anionic DOPC:DOPG LUVs titrated into 25 μM amphiphile
Langmuir monolayer study [2] = format: physicochemical; conditions: for maximum insertion pressure (MIP): DOPG monolayers, x-intercept extrapolated; for maximum surface pressure increase: pure DOPG
Langmuir monolayer study [3] = format: physicochemical; conditions: neutral DOPC monolayers
Langmuir monolayer study [4] = format: physicochemical; conditions: for maximum surface pressure increase: DOPC:DOPG; for maximum insertion pressure (MIP): DOPC:DOPG monolayers, x-intercept extrapolated
[5] = Isothermal titration calorimetry; format: binding; conditions: neutral DOPC LUVs titrated into 25 μM amphiphile

| SMILES | enthalpy change of binding [1] | maximum insertion pressure (MIP) (Langmuir monolayer study [2]) [mN/m] | maximum surface pressure increase (Langmuir monolayer study [2]) [mN/m] | incorporation into lipid monolayer (Langmuir monolayer study [3]) | maximum surface pressure increase (Langmuir monolayer study [4]) [mN/m] | maximum insertion pressure (MIP) (Langmuir monolayer study [4]) [mN/m] | interactions with LUVs (heat signals) [5] |
| --- | --- | --- | --- | --- | --- | --- | --- |
| CCCNC(=O)[C@H](OC(=O)CCCCCCCCCCCN)[C@@H](OC(=O)CCCCCCCCCCCN)C(=O)NCCC.Cl.Cl [Amphiphile B11] | positive | 40 | 20 | no significant incorporation | 15 | 42 | no interactions; also recorded: negligible |
| CCCCCCCCC(=O)OC(C(=O)NCCN)C(OC(=O)CCCCCCCC)C(=O)NCCN.Cl.Cl (centres unmarked) [Amphiphile G7] | negative | 46 | 24 | no significant incorporation | 12 | 52 | no interactions; also recorded: negligible |
